Experimental findings from ChEMBL document CHEMBL4811225 (J Med Chem, 2021) are described below.

By UniProt entry, the sequences of proteins in these tests, tags left out. Residues count along the entry.
UniProt P04757, 26-499 limits assumed: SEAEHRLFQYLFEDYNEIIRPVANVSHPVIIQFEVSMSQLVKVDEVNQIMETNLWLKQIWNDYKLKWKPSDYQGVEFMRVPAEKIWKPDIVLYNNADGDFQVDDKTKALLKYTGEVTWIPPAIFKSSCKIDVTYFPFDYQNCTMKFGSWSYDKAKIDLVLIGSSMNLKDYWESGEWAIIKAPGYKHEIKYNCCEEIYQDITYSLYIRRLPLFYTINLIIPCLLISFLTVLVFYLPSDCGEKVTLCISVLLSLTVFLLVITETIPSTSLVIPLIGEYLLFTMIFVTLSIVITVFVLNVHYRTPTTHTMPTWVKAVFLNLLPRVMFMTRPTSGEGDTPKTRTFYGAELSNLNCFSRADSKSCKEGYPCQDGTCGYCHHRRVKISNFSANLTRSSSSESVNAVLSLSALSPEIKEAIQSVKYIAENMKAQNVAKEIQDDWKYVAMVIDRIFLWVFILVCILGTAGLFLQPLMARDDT
UniProt P12392, 21-495 limits assumed: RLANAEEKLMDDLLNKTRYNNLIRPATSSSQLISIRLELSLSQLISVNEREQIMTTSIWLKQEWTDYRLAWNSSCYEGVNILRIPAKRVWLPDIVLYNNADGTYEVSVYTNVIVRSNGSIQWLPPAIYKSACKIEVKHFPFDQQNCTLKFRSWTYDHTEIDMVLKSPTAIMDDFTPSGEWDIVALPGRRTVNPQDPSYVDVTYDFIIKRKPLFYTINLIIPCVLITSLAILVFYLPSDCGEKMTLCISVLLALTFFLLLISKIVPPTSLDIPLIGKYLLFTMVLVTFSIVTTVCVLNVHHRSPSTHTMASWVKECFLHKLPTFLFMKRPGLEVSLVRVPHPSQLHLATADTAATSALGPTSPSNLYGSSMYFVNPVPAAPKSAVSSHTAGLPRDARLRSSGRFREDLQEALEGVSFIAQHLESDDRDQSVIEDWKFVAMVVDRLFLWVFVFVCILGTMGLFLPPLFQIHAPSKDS
UniProt P43143, 31-493 limits assumed: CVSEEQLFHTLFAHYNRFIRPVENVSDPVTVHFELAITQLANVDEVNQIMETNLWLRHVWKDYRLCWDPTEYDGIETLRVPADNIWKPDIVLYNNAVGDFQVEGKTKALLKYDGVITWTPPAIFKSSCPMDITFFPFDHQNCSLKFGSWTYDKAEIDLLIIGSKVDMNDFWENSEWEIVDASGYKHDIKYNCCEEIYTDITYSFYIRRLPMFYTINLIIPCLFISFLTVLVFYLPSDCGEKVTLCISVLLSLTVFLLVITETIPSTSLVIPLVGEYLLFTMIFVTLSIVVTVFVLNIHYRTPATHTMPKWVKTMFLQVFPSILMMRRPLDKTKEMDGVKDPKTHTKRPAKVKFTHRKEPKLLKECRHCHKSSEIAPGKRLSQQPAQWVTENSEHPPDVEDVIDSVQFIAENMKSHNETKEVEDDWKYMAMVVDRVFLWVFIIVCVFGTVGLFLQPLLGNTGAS
UniProt P30926, 22-498 limits assumed: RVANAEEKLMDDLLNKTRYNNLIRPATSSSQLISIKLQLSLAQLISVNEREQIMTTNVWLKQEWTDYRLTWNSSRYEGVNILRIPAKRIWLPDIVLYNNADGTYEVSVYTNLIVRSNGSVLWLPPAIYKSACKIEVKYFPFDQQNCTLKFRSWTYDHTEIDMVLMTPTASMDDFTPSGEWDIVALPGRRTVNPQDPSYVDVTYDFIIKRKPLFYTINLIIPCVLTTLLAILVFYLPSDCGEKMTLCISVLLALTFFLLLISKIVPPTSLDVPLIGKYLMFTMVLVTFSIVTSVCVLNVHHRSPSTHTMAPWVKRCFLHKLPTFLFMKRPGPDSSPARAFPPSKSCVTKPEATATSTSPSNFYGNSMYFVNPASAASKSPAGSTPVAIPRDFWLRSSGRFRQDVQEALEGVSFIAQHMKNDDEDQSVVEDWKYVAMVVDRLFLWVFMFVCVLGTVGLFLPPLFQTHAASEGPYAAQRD
UniProt P32297, 32-505 limits assumed: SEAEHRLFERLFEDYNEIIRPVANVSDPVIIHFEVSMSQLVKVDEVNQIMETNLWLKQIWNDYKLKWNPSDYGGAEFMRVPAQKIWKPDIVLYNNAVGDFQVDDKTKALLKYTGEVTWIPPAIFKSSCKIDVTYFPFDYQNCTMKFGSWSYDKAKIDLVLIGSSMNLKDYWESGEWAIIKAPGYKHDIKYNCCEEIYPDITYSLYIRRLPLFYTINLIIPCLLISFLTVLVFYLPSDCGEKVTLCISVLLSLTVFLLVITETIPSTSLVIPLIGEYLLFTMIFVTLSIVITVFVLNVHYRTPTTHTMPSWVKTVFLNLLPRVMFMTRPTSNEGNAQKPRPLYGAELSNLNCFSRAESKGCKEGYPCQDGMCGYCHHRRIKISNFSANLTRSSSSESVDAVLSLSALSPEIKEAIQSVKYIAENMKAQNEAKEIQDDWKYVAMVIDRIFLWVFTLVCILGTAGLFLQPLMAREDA
UniProt Q15825, 26-494 limits assumed: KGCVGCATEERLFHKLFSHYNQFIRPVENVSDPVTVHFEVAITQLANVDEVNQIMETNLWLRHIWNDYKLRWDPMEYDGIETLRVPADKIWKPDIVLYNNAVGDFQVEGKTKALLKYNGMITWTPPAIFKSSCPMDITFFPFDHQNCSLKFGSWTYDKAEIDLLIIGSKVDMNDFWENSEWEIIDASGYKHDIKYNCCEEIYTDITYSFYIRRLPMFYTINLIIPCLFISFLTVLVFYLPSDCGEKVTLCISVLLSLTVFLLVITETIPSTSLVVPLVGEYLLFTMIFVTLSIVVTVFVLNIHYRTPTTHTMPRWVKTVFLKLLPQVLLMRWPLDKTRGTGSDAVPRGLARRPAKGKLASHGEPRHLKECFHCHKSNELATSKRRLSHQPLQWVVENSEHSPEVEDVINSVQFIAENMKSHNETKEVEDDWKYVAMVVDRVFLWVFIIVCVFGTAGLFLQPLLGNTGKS

The target of assay [1] is Nicotinic acetylcholine receptor alpha6/alpha3/beta4 (Rattus norvegicus, UniProt P04757+P12392+P43143). Conditions: oocyte.
Assay [2] deals with Nicotinic acetylcholine receptor alpha6/alpha3/beta4 (Homo sapiens, UniProt P30926+P32297+Q15825). The conditions noted are these: oocyte.

A word on the IC50: it is the point on the concentration scale where inhibition reaches its midpoint. Read a high IC50 as weaker potency. For `CC(C)C[C@@H]1NC(=O)[C@H](C)NC(=O)[C@@H]2CCCN2C(=O)[C@H](Cc2cnc[nH]2)NC(=O)[C@H](CC(N)=O)NC(=O)[C@H](C(C)C)NC(=O)[C@H](CO)NC(=O)[C@@H]2CSSC[C@H](NC(=O)CN)C(=O)N[C@@H](CSSC[C@@H](C(N)=O)NC1=O)C(=O)N[C@@H](CO)C(=O)N[C@@H](Cc1cnc[nH]1)C(=O)N1CCC[C@H]1C(=O)N[C@@H](C)C(=O)N2`, the IC50 in assay [1] turned out to be 230 nM; in assay [2], 68 nM.

As to `CC(C)C[C@@H]1NC(=O)[C@H](CCC(=O)O)NC(=O)[C@@H]2CCCN2C(=O)[C@H](Cc2cnc[nH]2)NC(=O)[C@H](CC(N)=O)NC(=O)[C@H](C(C)C)NC(=O)[C@H](CCCNC(=N)N)NC(=O)[C@@H]2CSSC[C@H](NC(=O)CN)C(=O)N[C@@H](CSSC[C@@H](C(N)=O)NC1=O)C(=O)N[C@@H](CO)C(=O)N[C@@H](Cc1cnc[nH]1)C(=O)N1CCC[C@H]1C(=O)N[C@@H](C)C(=O)N2`, the values for the IC50 in assay [1] and in assay [2] were 9750 nM and 96.8 nM, respectively.

Take `CC(C)[C@@H]1NC(=O)[C@H](CCC(=O)O)NC(=O)[C@@H]2CCCN2C(=O)[C@H](Cc2cnc[nH]2)NC(=O)[C@H](CC(N)=O)NC(=O)[C@H](C(C)C)NC(=O)[C@H](CO)NC(=O)[C@@H]2CSSC[C@H](NC(=O)CN)C(=O)N[C@@H](CSSC[C@@H](C(N)=O)NC1=O)C(=O)N[C@@H](CO)C(=O)N[C@@H](Cc1cnc[nH]1)C(=O)N1CCC[C@H]1C(=O)N[C@@H](C)C(=O)N2`: the IC50 in assay [1] is 59.8 nM; in assay [2], 5.7 nM.

Consider `CC(C)C[C@@H]1NC(=O)[C@H](CCC(=O)O)NC(=O)[C@@H]2CCCN2C(=O)[C@H](Cc2cnc[nH]2)NC(=O)[C@H](CCCCC(=O)O)NC(=O)[C@H](C(C)C)NC(=O)[C@H](CO)NC(=O)[C@@H]2CSSC[C@H](NC(=O)CN)C(=O)N[C@@H](CSSC[C@@H](C(N)=O)NC1=O)C(=O)N[C@@H](CO)C(=O)N[C@@H](Cc1cnc[nH]1)C(=O)N1CCC[C@H]1C(=O)N[C@@H](C)C(=O)N2`, for which the IC50 stood at 275 nM in assay [1] and 18.9 nM in assay [2].

With `CC(C)C[C@@H]1NC(=O)[C@H](CCC(=O)O)NC(=O)[C@@H]2CCCN2C(=O)[C@H](Cc2cnc[nH]2)NC(=O)[C@H](CCCNC(=N)N)NC(=O)[C@H](C(C)C)NC(=O)[C@H](CC(N)=O)NC(=O)[C@@H]2CSSC[C@H](NC(=O)CN)C(=O)N[C@@H](CSSC[C@@H](C(N)=O)NC1=O)C(=O)N[C@@H](CO)C(=O)N[C@@H](Cc1cnc[nH]1)C(=O)N1CCC[C@H]1C(=O)N[C@@H](C(C)C)C(=O)N2`, the values for the IC50 in assay [1] and in assay [2] were 1.81 nM and 0.28 nM, respectively.

Take `CC(C)C[C@@H]1NC(=O)[C@H](CCC(=O)O)NC(=O)[C@@H]2CCCN2C(=O)[C@H](Cc2cnc[nH]2)NC(=O)[C@H](C)NC(=O)[C@H](C(C)C)NC(=O)[C@H](CO)NC(=O)[C@@H]2CSSC[C@H](NC(=O)CN)C(=O)N[C@@H](CSSC[C@@H](C(N)=O)NC1=O)C(=O)N[C@@H](CO)C(=O)N[C@@H](Cc1cnc[nH]1)C(=O)N1CCC[C@H]1C(=O)N[C@@H](C)C(=O)N2`: the IC50 in assay [1] is 56.6 nM; in assay [2], 10.7 nM.

Consider `CC(C)C[C@@H]1NC(=O)[C@H](CCC(=O)O)NC(=O)[C@@H]2CCCN2C(=O)[C@H](Cc2cnc[nH]2)NC(=O)[C@H](CC(N)=O)NC(=O)[C@H](CC(C)C)NC(=O)[C@H](CO)NC(=O)[C@@H]2CSSC[C@H](NC(=O)CN)C(=O)N[C@@H](CSSC[C@@H](C(N)=O)NC1=O)C(=O)N[C@@H](CO)C(=O)N[C@@H](Cc1cnc[nH]1)C(=O)N1CCC[C@H]1C(=O)N[C@@H](C)C(=O)N2`, for which the values for the IC50 in assay [1] and in assay [2] were 63.8 nM and 9.64 nM, respectively.

Consider `CC(C)C[C@@H]1NC(=O)[C@H](CCC(=O)O)NC(=O)[C@@H]2CCCN2C(=O)[C@H](Cc2cnc[nH]2)NC(=O)[C@H](CC(N)=O)NC(=O)[C@H](C(C)C)NC(=O)[C@H](Cc2ccc(O)cc2)NC(=O)[C@@H]2CSSC[C@H](NC(=O)CN)C(=O)N[C@@H](CSSC[C@@H](C(N)=O)NC1=O)C(=O)N[C@@H](CO)C(=O)N[C@@H](Cc1cnc[nH]1)C(=O)N1CCC[C@H]1C(=O)N[C@@H](C)C(=O)N2`, for which the IC50 in assay [1] was 86.9 nM; in assay [2] it was 30.6 nM.

`CC(C)C[C@@H]1NC(=O)[C@H](CCC(=O)O)NC(=O)[C@@H]2CCCN2C(=O)[C@H](Cc2cnc[nH]2)NC(=O)[C@H](CC(N)=O)NC(=O)[C@H](C(C)C)NC(=O)[C@H](Cc2cnc[nH]2)NC(=O)[C@@H]2CSSC[C@H](NC(=O)CN)C(=O)N[C@@H](CSSC[C@@H](C(N)=O)NC1=O)C(=O)N[C@@H](CO)C(=O)N[C@@H](Cc1cnc[nH]1)C(=O)N1CCC[C@H]1C(=O)N[C@@H](C)C(=O)N2`: the IC50 in assay [1] was 18.3 nM; in assay [2] it was 2.9 nM.

Consider `CC(C)C[C@@H]1NC(=O)[C@H](CCC(=O)O)NC(=O)[C@H](C)NC(=O)[C@H](Cc2cnc[nH]2)NC(=O)[C@H](CC(N)=O)NC(=O)[C@H](C(C)C)NC(=O)[C@H](CO)NC(=O)[C@@H]2CSSC[C@H](NC(=O)CN)C(=O)N[C@@H](CSSC[C@@H](C(N)=O)NC1=O)C(=O)N[C@@H](CO)C(=O)N[C@@H](Cc1cnc[nH]1)C(=O)N1CCC[C@H]1C(=O)N[C@@H](C)C(=O)N2`, for which the IC50 was 381 nM in assay [1] and 73.3 nM in assay [2].

Consider `CC(C)C[C@@H]1NC(=O)[C@H](CCC(N)=O)NC(=O)[C@@H]2CCCN2C(=O)[C@H](Cc2cnc[nH]2)NC(=O)[C@H](CC(N)=O)NC(=O)[C@H](C(C)C)NC(=O)[C@H](CO)NC(=O)[C@@H]2CSSC[C@H](NC(=O)CN)C(=O)N[C@@H](CSSC[C@@H](C(N)=O)NC1=O)C(=O)N[C@@H](CO)C(=O)N[C@@H](Cc1cnc[nH]1)C(=O)N1CCC[C@H]1C(=O)N[C@@H](C)C(=O)N2`, for which the IC50 in assay [1] was found to be 180 nM; in assay [2], 12.6 nM.

Consider `CC(C)C[C@@H]1NC(=O)[C@H](CCC(=O)O)NC(=O)[C@@H]2CCCN2C(=O)[C@H](Cc2cnc[nH]2)NC(=O)[C@H](CC(N)=O)NC(=O)[C@H](C(C)C)NC(=O)[C@H](CO)NC(=O)[C@@H]2CSSC[C@H](NC(=O)CN)C(=O)N[C@@H](CSSC[C@@H](C(N)=O)NC1=O)C(=O)N[C@@H](CCO)C(=O)N[C@@H](Cc1cnc[nH]1)C(=O)N1CCC[C@H]1C(=O)N[C@@H](C)C(=O)N2`, for which the IC50 amounted to 670 nM in assay [1] and 26.5 nM in assay [2].

Regarding `CC(C)C[C@@H]1NC(=O)[C@H](CCC(=O)O)NC(=O)[C@@H]2CCCN2C(=O)[C@H](Cc2cnc[nH]2)NC(=O)[C@H](CC(N)=O)NC(=O)[C@H](C(C)C)NC(=O)[C@H](CO)NC(=O)[C@@H]2CSSC[C@H](NC(=O)CN)C(=O)N[C@@H](CSSC[C@@H](C(N)=O)NC1=O)C(=O)N[C@@H](CC(C)C)C(=O)N[C@@H](Cc1cnc[nH]1)C(=O)N1CCC[C@H]1C(=O)N[C@@H](C)C(=O)N2`, the IC50 in assay [1] stood at 4150 nM; in assay [2] it was 86.2 nM.

Regarding `CC(C)C[C@@H]1NC(=O)[C@H](C)NC(=O)[C@@H]2CCCN2C(=O)[C@H](Cc2cnc[nH]2)NC(=O)[C@H](CCCNC(=N)N)NC(=O)[C@H](C)NC(=O)[C@H](CCCNC(=N)N)NC(=O)[C@@H]2CSSC[C@H](NC(=O)CN)C(=O)N[C@@H](CSSC[C@@H](C(N)=O)NC1=O)C(=O)N[C@@H](CO)C(=O)N[C@@H](Cc1cnc[nH]1)C(=O)N1CCC[C@H]1C(=O)N[C@@H](C(C)C)C(=O)N2`, the results for the IC50 in assay [1] and in assay [2] were 9470 nM and 53.2 nM, respectively.

As for `CC(C)C[C@@H]1NC(=O)[C@H](CCC(=O)O)NC(=O)[C@@H]2CCCN2C(=O)[C@H](Cc2cnc[nH]2)NC(=O)[C@H](CC(N)=O)NC(=O)[C@H](C(C)C)NC(=O)[C@H](CO)NC(=O)[C@@H]2CSSC[C@H](NC(=O)CN)C(=O)N[C@@H](CSSC[C@@H](C(N)=O)NC1=O)C(=O)N[C@@H](C(C)C)C(=O)N[C@@H](Cc1cnc[nH]1)C(=O)N1CCC[C@H]1C(=O)N[C@@H](C)C(=O)N2`, the results for the IC50 in assay [1] and in assay [2] were 1050 nM and 29.4 nM, respectively.

Take `CC(C)C[C@@H]1NC(=O)[C@H](CCC(=O)O)NC(=O)[C@H](CO)NC(=O)[C@H](Cc2cnc[nH]2)NC(=O)[C@H](CC(N)=O)NC(=O)[C@H](C(C)C)NC(=O)[C@H](CO)NC(=O)[C@@H]2CSSC[C@H](NC(=O)CN)C(=O)N[C@@H](CSSC[C@@H](C(N)=O)NC1=O)C(=O)N[C@@H](CO)C(=O)N[C@@H](Cc1cnc[nH]1)C(=O)N1CCC[C@H]1C(=O)N[C@@H](C)C(=O)N2`: the figures for the IC50 in assay [1] and in assay [2] were 119 nM and 23.2 nM, respectively.

Consider `CC(C)C[C@@H]1NC(=O)[C@H](CC(C(=O)O)C(=O)O)NC(=O)[C@@H]2CCCN2C(=O)[C@H](Cc2cnc[nH]2)NC(=O)[C@H](CC(N)=O)NC(=O)[C@H](C(C)C)NC(=O)[C@H](CO)NC(=O)[C@@H]2CSSC[C@H](NC(=O)CN)C(=O)N[C@@H](CSSC[C@@H](C(N)=O)NC1=O)C(=O)N[C@@H](CO)C(=O)N[C@@H](Cc1cnc[nH]1)C(=O)N1CCC[C@H]1C(=O)N[C@@H](C)C(=O)N2`, for which the IC50 in assay [1] amounted to 430 nM; in assay [2] it was 18.2 nM.

Take `CC(C)C[C@@H]1NC(=O)[C@H](CCC(=O)O)NC(=O)[C@@H]2CCCN2C(=O)[C@H](Cc2cnc[nH]2)NC(=O)[C@H](CC(N)=O)NC(=O)[C@H](C)NC(=O)[C@H](CO)NC(=O)[C@@H]2CSSC[C@H](NC(=O)CN)C(=O)N[C@@H](CSSC[C@@H](C(N)=O)NC1=O)C(=O)N[C@@H](CO)C(=O)N[C@@H](Cc1cnc[nH]1)C(=O)N1CCC[C@H]1C(=O)N[C@@H](C)C(=O)N2`: the IC50 stood at 137 nM in assay [1] and 22.1 nM in assay [2].

Turning to `CC(C)[C@@H]1NC(=O)[C@H](CO)NC(=O)[C@@H]2CSSC[C@H](NC(=O)CN)C(=O)N[C@@H](CSSC[C@@H](C(N)=O)NC(=O)[C@H](CCCNC(=N)N)NC(=O)[C@H](CCC(=O)O)NC(=O)[C@@H]3CCCN3C(=O)[C@H](Cc3cnc[nH]3)NC(=O)[C@H](CC(N)=O)NC1=O)C(=O)N[C@@H](CO)C(=O)N[C@@H](Cc1cnc[nH]1)C(=O)N1CCC[C@H]1C(=O)N[C@@H](C)C(=O)N2`, the IC50 came to 371 nM in assay [1] and 31.9 nM in assay [2].

On to `CC[C@H](C)[C@@H]1NC(=O)[C@@H]2CSSC[C@@H](C(N)=O)NC(=O)[C@H](CC(C)C)NC(=O)[C@H](CCC(=O)O)NC(=O)[C@@H]3CCCN3C(=O)[C@H](Cc3cnc[nH]3)NC(=O)[C@H](CC(N)=O)NC(=O)[C@H](C(C)C)NC(=O)[C@H](CO)NC(=O)[C@H](CSSC[C@H](NC(=O)CN)C(=O)N2)NC(=O)[C@H](C)NC(=O)[C@@H]2CCCN2C(=O)[C@H](Cc2cnc[nH]2)NC1=O`, for which the IC50 in assay [1] is 2150 nM; in assay [2] it was 36.5 nM.
